A mixed list of measured activities; the numbers were collected in NIAID ChemDB.

All rows: whole-cell or culture tests; organism: HIV-1; read by: MTT; endpoint: EC50

Blank or dashed fields: not listed here. Lines come from different laboratories, so protocols vary. ECn is the concentration giving n% inhibition of infection, replication or growth.

compound,changes,strain,cell line,value
Cc1c(C(C)c2ccc3ccccc3c2)n(COCc2ccccc2)c(=O)[nH]c1=O,,IIIB,MT-4,>312 µM
Cc1cc(/C=C/C#N)cc(C)c1Oc1nc(NC2CCN(Cc3ccccc3Br)CC2)nc2ccsc12,NNRTI-resistant (RT F227L V106A),IIIB,MT-4,0.0895 µM
Cc1nc2c(c(C)c(C)n2CCC#N)c(-c2ccc(Cl)cc2)c1[C@H](OC(C)(C)C)C(=O)O,,IIIB,MT-4,0.00529 µM
COc1ccc(OS(=O)(=O)c2c(O)c(-c3cc(C)on3)c(OC)c3ccoc23)cc1,,IIIB,MT-4,0.000028 µM
Cc1cc(/C=C/C#N)cc(C)c1Oc1nc(NC2CCN(Cc3ccccn3)CC2)nc2ccsc12,NNRTI-resistant (RT Y181C),IIIB,MT-4,0.00923 µM
Cc1nc2c(c(C)c(C)n2Cc2ccncc2)c(-c2ccc(Cl)cc2)c1[C@H](OC(C)(C)C)C(=O)O,,IIIB,MT-4,0.00772 µM
N#Cc1ccc(Nc2nc(Oc3ccc(-c4ccc(C#N)cc4)c(F)c3F)c3sccc3n2)cc1,Y181C,IIIB,MT-2,0.0582 µM
CCOCn1c(Cc2ccccc2)c(C(C)C)c(=O)[nH]c1=O,Y181C,N119,MT-4,>20 µM
Cc1cn([C@H]2C[C@H](N=[N+]=[N-])[C@@H](CO)O2)c(=O)[nH]c1=O,K103N,IIIB,MT-4,0.019 µM
COc1ccc(/C=N/n2sc3ccc(C)cc3c2=O)cc1,K103N + Y181C,,MT-4,>55 µM
COc1ccc(N/C(C)=C\C(=O)c2c(O)c(S(=O)(=O)Oc3ccc([N+](=O)[O-])cc3)c3occc3c2OC)cc1,,IIIB,MT-4,0.00004 µM
Cc1cc(/C=C/C#N)cc(C)c1Oc1ccnc(S(=O)(=O)CC(=O)NCc2ccc(Cl)cc2)n1,,IIIB,MT-4,>1.43 µM
CCOCn1c(Cc2cc(C)cc(C)c2)c(C(C)C)c(=O)[nH]c1=O,K103N + Y181C,A17,MT-4,0.3 µM
Cc1c(C(C)c2ccc(F)cc2)n(COCc2ccccc2)c(=O)[nH]c1=O,,IIIB,MT-4,>339.3 µM
N#Cc1ccc(Nc2nc(Oc3c(F)cc(-c4ccc(C#N)cc4)cc3F)c3sccc3n2)cc1,,IIIB,MT-4,0.0123 µM
Cc1cc(C#N)cc(C)c1Oc1nc(NC2CCN(Cc3ccc(S(N)(=O)=O)cc3)CC2)nc2sccc12,NNRTI-resistant (RT F227L V106A),IIIB,MT-4,0.00885 µM
COc1c(C(=O)/C=C(/C)Nc2ccc(Cl)cc2)c(O)c(S(=O)(=O)OC2CCCCC2)c2occc12,,IIIB,MT-4,0.000044 µM
COc1c(O)cc2ccc(=O)oc2c1-c1c(O)ccc2ccc(=O)oc12,A17 (K103N Y181C),,MT-4,8.3 µM
CCc1c(Cc2cc(C)cc(C)c2)n(Cc2ccc(C#CCF)cc2)c(=O)[nH]c1=O,EFV:K103R+V179D+P225H,IIIB,MT-4,>2 µM
Cc1cc(-c2ccc(C#N)cc2)cc(C)c1Oc1ccnc(S(=O)(=O)CC(=O)Nc2ccc(Cl)cc2)n1,F227L V106A,IIIB,MT-4,4.333 µM
CCc1c(Cc2cc(C)cc(C)c2)n(COCC#CC#CCO[Si](c2ccccc2)(c2ccccc2)C(C)(C)C)c(=O)[nH]c1=O,K103N + Y181C,IIIB,MT-4,>76 µM
Cc1ccc2sn(/N=C/c3ccccc3O)c(=O)c2c1,Y181C,,MT-4,>30 µM
Cc1cc(/C=C/C#N)cc(C)c1Oc1nc(NC2CCN(Cc3cccc(Br)c3)CC2)nc2ccsc12,NNRTI-resistant (RT Y181C),IIIB,MT-4,0.128 µM
C=CCOCn1c(Cc2cc(C(F)(F)F)cc(C(F)(F)F)c2)c(C(C)C)c(=O)[nH]c1=O,,N119 (Y181C),MT-4,13 µM
Cc1cc(/C=C/C#N)cc(C)c1Oc1ccnc(S(=O)(=O)CC(=O)Nc2ccc(Cl)cc2)n1,L100I,IIIB,MT-4,0.009 µM
Cc1nc2c(c(C)c(C)n2Cc2cccc(Cl)c2)c(-c2ccc(Cl)cc2)c1C(OC(C)(C)C)C(=O)O,,IIIB,MT-4,0.154 µM
Cc1cc(C#CCCO)cc(C)c1Oc1ccnc(Nc2ccc(C#N)cc2)n1,Y188L,IIIB,MT-4,0.219 µM
Cc1cn([C@H]2C[C@H](N=[N+]=[N-])[C@@H](CO)O2)c(=O)[nH]c1=O,,IIIB,MT-4,0.022 µM
COc1c(-c2cc(C)n(-c3ccccc3)n2)c(O)c(S(=O)(=O)OC2CCCCC2)c2occc12,,IIIB,MT-4,0.000021 µM
Cc1ccnc2c1NC(=O)c1cccnc1N2C1CC1,F227L + V106A,,MT-4,>2.141 µM
C#CCOCn1c(Cc2ccccc2)c(CF)c(=O)[nH]c1=O,EFV:K103R+V179D+P225H,IIIB,MT-4,>100 µM
Cc1cc(-c2ccc(C#N)cc2)cc(C)c1Oc1ccnc(S(=O)(=O)CC(=O)NC(C)c2ccc(F)cc2)n1,,IIIB,MT-4,>4.56 µM
O=c1c2ccccc2sn1/N=C/c1ccc2c(c1)OCO2,,,MT-4,>17 µM
CCn1c(C)c(C)c2c(-c3ccc(Cl)cc3)c([C@H](OC(C)(C)C)C(=O)O)c(C)nc21,,IIIB,MT-4,0.00653 µM
CCc1c(Cc2cc(C)cc(C)c2)n(Cc2ccc(I)cc2)c(=O)[nH]c1=O,,,MT-4,0.06 µM
CCc1c(Cc2cc(C)cc(C)c2)n(COCC#Cc2ccc(NC(=O)C(F)(F)F)cc2)c(=O)[nH]c1=O,Y181C,IIIB,MT-4,1.5 µM
Cc1ccccc1C(C)c1c(C)c(=O)[nH]c(=O)n1COCc1ccccc1,L100I,IIIB,MT-4,231 µM
Cc1cc(C#N)cc(C)c1Oc1nc(Nc2ccc(C#N)cc2)nc(N)c1Br,Y181C,IIIB,MT-4,0.014 µM
Cc1cn([C@H]2C[C@H](N=[N+]=[N-])[C@@H](CO)O2)c(=O)[nH]c1=O,N119 (Y1811C),,MT-4,0.02 µM
CCc1c(Cc2cc(C)cc(C)c2)n(COCCF)c(=O)[nH]c1=O,EFV:K103R+V179D+P225H,IIIB,MT-4,20 µM
C#Cc1ccc(Nc2nccc(Oc3c(C)cc(-c4cn(Cc5ccc(C(=O)OC)cc5)nn4)cc3C)n2)cc1,E138K,IIIB,MT-4,0.61 µM
CCc1c(Cc2cc(C)cc(C)c2)n(COCC#Cc2ccccc2[N+](=O)[O-])c(=O)[nH]c1=O,K103N + Y181C,IIIB,MT-4,>10 µM
CCOCn1c(Cc2ccccc2)c(C(C)C)c(=O)[nH]c1=O,,IIIB,MT-4,0.03 µM
Cc1cc(C(C)(C)C)ccc1N1C(=O)CS/C1=N\c1nc2ccccc2s1,,IIIB,MT-4,>86 µM
C#Cc1ccc(Nc2nccc(Oc3c(C)cc(-c4cn(CCc5cccs5)nn4)cc3C)n2)cc1,Y181C,IIIB,MT-4,>5.53 µM
COc1cc(/C=N/n2sc3ccc(C)cc3c2=O)ccc1O,,,MT-4,>16 µM
CCOCn1c(Cc2cc(OC)cc(OC)c2)c(C(C)C)c(=O)[nH]c1=O,,IIIB,MT-4,0.3 µM
CCc1c(Cc2cc(C)cc(C)c2)n(COCCO)c(=O)[nH]c1=O,EFV:K103R+V179D+P225H,IIIB,MT-4,22 µM
COc1ccc(/C=N/n2sc3ccccc3c2=O)cc1,K103N + Y181C,,MT-4,>19 µM
CCc1c(Cc2cc(OC)cc(OC)c2)[nH]c(=O)[nH]c1=O,K103N + Y181C,A17,MT-4,>100 µM
CC(NC(=S)Nc1nc2ccccc2s1)c1ccccc1,A17,IIIB,MT-4,>38 µM
O=C1Nc2ccc(Cl)cc2[C@@](C#CC2CC2)(C(F)(F)F)O1,K103N,IIIB,MT-4,0.1016 µM
C=C(c1ccc(C)cc1)c1c(C)c(=O)[nH]c(=O)n1COCc1ccccc1,,IIIB,MT-4,64.66 µM
Cc1cc(C#N)cc(C)c1Oc1nc(NC2CCC(NCc3ccccc3)CC2)nc2ccsc12,NNRTI-resistant (RT E138K),IIIB,MT-4,0.891 µM
C#CCOCn1c(Cc2c(F)c(F)cc(F)c2F)c(CC)c(=O)[nH]c1=O,,N119 (Y181C),MT-4,>5 µM
C=C(c1ccccc1)c1c(C)c(=O)[nH]c(=O)n1COCc1ccccc1,K103N,IIIB,MT-4,46.06 µM
FC(F)(F)c1cccc(NC(=S)Nc2nc3ccccc3s2)c1,,IIIB,MT-4,>5.8 µM
O=c1c2ccccc2sn1/N=C/c1ccc(O)cc1,K103N + Y181C,,MT-4,>18 µM
CCc1c(Cc2cc(C)cc(C)c2)n(COCC#Cc2ccc(NC(=O)CBr)cc2)c(=O)[nH]c1=O,K103N + Y181C,IIIB,MT-4,2.3 µM
O=c1c2ccccc2sn1/N=C/c1ccc([N+](=O)[O-])cc1,,,MT-4,45 µM
Cc1nc2c(c(C)c(C)n2CC2(C#N)CC2)c(-c2ccc(Cl)cc2)c1[C@H](OC(C)(C)C)C(=O)O,,IIIB,MT-4,0.00167 µM
O=c1c2ccccc2sn1/N=C/c1ccc(O)c(O)c1,K103N + Y181C,,MT-4,>44 µM
CC(c1ccccc1)N1C(=O)CS/C1=N\c1nc2ccccc2s1,,IIIB,MT-4,>84 µM
CCOCn1c(Cc2cccc(C(F)(F)F)c2)c(C(C)C)c(=O)[nH]c1=O,K103N + Y181C,A17,,12 µM
CCOC(=O)c1ccc(CN2CCC(Nc3nc(Oc4c(C)cc(C#N)cc4C)c4ccsc4n3)CC2)cc1,NNRTI-resistant (RT E138K),IIIB,MT-4,0.498 µM
COc1ccccc1C(C)c1c(C)c(=O)[nH]c(=O)n1COCc1ccccc1,,IIIB,MT-4,>329 µM
COc1c(-c2cc(C)n(-c3ccccc3)n2)c(O)c(S(=O)(=O)OC2CCCC2)c2occc12,,IIIB,MT-4,0.000019 µM
O=c1c2ccccc2sn1/N=C/c1ccccc1O,K103N + Y181C,,MT-4,>18 µM
C=CCOCn1c(Cc2cccc(F)c2)c(CC)c(=O)[nH]c1=O,,,MT-4,0.03 µM
Cc1nc2c(c(C)c(C)n2CC#N)c(-c2ccc(Cl)cc2)c1C(OC(C)(C)C)C(=O)O,,IIIB,MT-4,0.341 µM
Cc1cc(-c2ccc(C#N)cc2)cc(C)c1Oc1ccnc(S(=O)(=O)C(C)C(=O)Nc2ccc(C#N)cc2)n1,,IIIB,MT-4,0.009 µM
CC(C)c1c(C(C)c2ccc(F)cc2)n(COCc2ccccc2)c(=O)[nH]c1=O,F227L + V106A,IIIB,MT-4,>33.73 µM
C=CCn1cc(COCn2c(Cc3cc(C)cc(C)c3)c(CC)c(=O)[nH]c2=O)nn1,K103N + Y181C,IIIB,MT-4,21 µM
Cc1cc(-c2ccc(C#N)cc2)cc(Cl)c1Oc1nc(Nc2ccc(C#N)cc2)nc2ccsc12,L100I,IIIB,MT-4,0.0284 µM
CCc1c(Cc2cc(C)cc(C)c2)n(COCC#Cc2cnccn2)c(=O)[nH]c1=O,EFV-resistant (K103R V179D P225H),IIIB,MT-4,14 µM
COc1c(-c2cc(C)on2)c(O)c(S(=O)(=O)Oc2ccc([N+](=O)[O-])cc2)c2occc12,,IIIB,MT-4,0.000031 µM
CCc1c(Cc2cc(C)cc(C)c2)n(COCCOc2ccccc2)c(=O)[nH]c1=O,,IIIB,MT-4,>0.009 µM
CCc1c(Cc2cc(C)cc(C)c2)n(COCC#Cc2ccc(C=O)cc2)c(=O)[nH]c1=O,WT,IIIB,MT-4,0.01 µM

4 of the rows above, restated:

compound | changes | strain | cell line | value
COc1cc(/C=N/n2sc3ccc(C)cc3c2=O)ccc1O |  |  | MT-4 | >16 µM
O=c1c2ccccc2sn1/N=C/c1ccc(O)c(O)c1 | K103N + Y181C |  | MT-4 | >44 µM
O=c1c2ccccc2sn1/N=C/c1ccc(O)cc1 | K103N + Y181C |  | MT-4 | >18 µM
Cc1cc(-c2ccc(C#N)cc2)cc(C)c1Oc1ccnc(S(=O)(=O)CC(=O)Nc2ccc(Cl)cc2)n1 | F227L V106A | IIIB | MT-4 | 4.333 µM